Molecular target: endogenous hamster uPAR on J1.1 cells (hamster)
Assay: cell-based or functional assay

human single chain uPA (scuPA), American Diagnostics Inc. (from UniProt P00749 21-431) (ligand)
fold decrease in R5181 virus yield from J1.1 cells exposed to the highest concentration of scuPA, against untreated cells: 10 fold
